Anti-infective test results gathered from many reports (values: NIAID ChemDB through PubChem).

All rows: growth or infection tests; organism: Cryptococcus neoformans; endpoint: MIC

Conditions beyond the fields shown may differ between rows. Blank or dashed fields: not listed here. Two numbers with a dash give a range or band.

structure	strain	method	setting	value
Clc1ccc(CC(Cc2ccc(-c3ccccc3)cc2)n2ccnc2)cc1				5.5 µM
C[C@H](n1nnnc1CCN1CCN(c2ccc(F)cc2)CC1)[C@](O)(Cn1cncn1)c1ccc(F)cc1F	LA314			8 µg/mL
CC(=O)OC1C(=O)N(c2ccccc2)C1c1ccc2c(c1)OCO2	AH27/A			159 µM
Fc1ccccc1CC(Cc1ccc(-c2ccccc2)cc1)n1ccnc1				5.5 µM
O=C1/C(=C/c2ccc(Cl)cc2)COc2ccccc21	93/V			12.5 µg/mL
COc1cc(C2Oc3ccc4c(=O)c5c(O)cc(O)cc5oc4c3OC2CO)cc(OC)c1O		broth dilution		44 µg/mL
Clc1ccccc1CN(Cc1ccc(-c2ccccc2)cc1)n1ccnc1				33 µM
CNC1C(C)OC(O[C@H]2c3cc(C)c(C(=O)N[C@@H](CO)C(=O)O)c(O)c3-c3c(cc4c(c3O)C(=O)c3cc(OC)cc(O)c3C4=O)[C@@H]2O)C(O)C1OC1OCC(O)C(O)C1O	D49			0.8 µg/mL
CCC(C)/C=C(C)/C=C/C=C(\C)CC(C)CC(C)CC(/C=C(C)/C=C/C(O)C(C)(C)c1cc(O)c([C@@H]2O[C@H](CO)C[C@H](O)[C@H]2O)c(=O)o1)CO	M9010			6.2 µg/mL
C[C@H](n1nnnc1CCN1CCN(Cc2ccccc2)CC1)[C@](O)(Cn1cncn1)c1ccc(F)cc1F	LA314			>16 µg/mL
CCc1ccc(C2CC(=NOCc3ccccc3)CC(c3ccc(CC)cc3)N2C)cc1				50 µg/mL
C[C@@H](c1ncncc1F)[C@](O)(Cn1cncn1)c1ccc(F)cc1F	Clinical isolate (IM 983036)	broth dilution		<0.015 µg/mL
Oc1ccccc1N=Cc1ccccc1	WP	broth dilution		8 µg/mL
CC(C)=CCC1=CC(=O)C=C(C)C1=O	ATCC90112			70 µg/mL
O=c1c2cccc(O)c2oc2cc(O)cc(O)c12				>25 µg/mL
CC(=O)O[C@@H]1C(=O)N(c2ccc(C(=O)O)cc2)[C@H]1c1ccccc1	AH27/A			154 µM
COc1ccc(CN(Cc2ccc(-c3ccccc3)cc2)n2ccnc2)cc1				200 µM
CC1CC(=O)N(c2ccc(F)cc2)C1=O	ATCC 32264	broth dilution / turbidity		62.5 µg/mL
CC(C)=CCc1c(O)ccc2oc3cc(O)cc(O)c3c(=O)c12				>25 µg/mL
C[C@H]1[C@H](O)[C@@H](C)/C=C/C=C/C=C/C=C/C=C/C=C/C=C/[C@H](O[C@@H]2O[C@H](C)[C@@H](O)[C@H](N)[C@@H]2O)C[C@@H]2O[C@](O)(C[C@@H](O)C[C@@H](O)CC[C@H](O)[C@@H](O)C[C@@H](O)CC(=O)O[C@H]1C)C[C@H](O)[C@H]2C(=O)O	3 strains			0.5–1 µg/mL
O=c1c2ccc(O)cc2oc2cccc(O)c12				>25 µg/mL
Cc1ccc(N2C(=O)C[C@@H](C)C2=O)cc1	ATCC 32264	broth dilution / turbidity		62.5 µg/mL
CC(=O)N1CCC(n2cc(CN3CCc4sccc4C3)nn2)CC1	NCIM576	agar		>200 µg/mL
CC(C)=CCc1ccc(O)c2oc3cc(O)cc(O)c3c(=O)c12				>25 µg/mL
CCC(C)CC(C)CCCCCCCCC(=O)N[C@H]1C[C@@H](O)[C@H](NCCN)NC(=O)[C@@H]2[C@@H](O)CCN2C(=O)[C@H]([C@H](O)CCN)NC(=O)[C@H]([C@H](O)[C@@H](O)c2ccc(O)cc2)NC(=O)[C@@H]2C[C@@H](O)CN2C(=O)[C@H]([C@@H](C)O)NC1=O	Isolate 34 (AMB FCZ 5FC-susceptible)			16 µg/mL
O=C1C(OS(=O)(=O)c2ccc([N+](=O)[O-])cc2)C(c2ccccc2)N1c1ccccc1	AH27/A			14.08 µM
COC1CC2CCC(C)C(O)(O2)C(=O)C(=O)N2CCCCC2C(=O)OC(C(C)CC2CCC(O)C(OC)C2)CC(=O)C(C)/C=C(\C)C(O)[C@@](OC)(N(O)C(=O)OCC(C)C)C(=O)C(C)CC(C)/C=C/C=C/C=C/1C	TOR1-1			>100 µg/mL
CN1CCN(c2n[nH]c(N3C(=O)CS[C@@H]3c3ccc4c(c3)OCO4)n2)CC1	H99	broth dilution		1.56 µg/mL
COc1cc2oc3cc(O)cc(O)c3c(=O)c2c2c1OC(C)(C)C=C2		broth dilution		>64 µg/mL
Oc1ccccc1N=Cc1cccc(O)c1O	LMM 820	broth dilution		4 µg/mL
C=C(C)[C@@H]1CC[C@]2(C(=O)O)CC[C@]3(C)[C@H](CC[C@@H]4[C@@]5(C)CC[C@H](O)C(C)(C)[C@@H]5CC[C@]43C)[C@@H]12				>25 µg/mL
O=C1/C(=C/c2ccc(-c3ccccc3)cc2)CSc2ccccc21	Farwania			25 µg/mL
N#Cc1c(Cl)nc(SCc2ccc(Cl)cc2)nc1-c1cccs1				>100 µg/mL
CC1(C)O[C@H]2O[C@H](C3=NOC(C#N)C3)[C@H](OCc3ccccc3)[C@H]2O1				25 µg/mL
Oc1ccccc1N=Cc1ccc2c(c1)OCO2	GM	broth dilution		5.8 µg/mL
C[C@@H](SC1COC(/C=C/C=C/c2ccc(C#N)cc2F)OC1)[C@](O)(Cn1cncn1)c1ccc(F)cc1F	TIMM0362			0.016 µg/mL
C[C@H](n1nnc(CCN2CCN(c3ccccc3Cl)CC2)n1)[C@](O)(Cn1cncn1)c1ccc(F)cc1F	LA314			8 µg/mL
CCC/C=C/C=C/C=C/C(=O)OCC1O[C@@H](OC2C(CO)O[C@]3(OCc4cc(O)cc(O)c43)[C@H](O)[C@H]2OC(=O)/C=C/C=C/CC(O)/C=C/C=C/C=C/CCC)[C@H](O)[C@@H](O)[C@H]1O	D49			>100 µg/mL
CCCCC(=O)OC1CC(OC(C)C(C)C(O)C(C)C(O)C(C)C2OC(=O)/C=C/CC(O)CC(O)CC(O)CCC(C)C(O)C[C@@]3(O)O[C@H](CC(O)CC(OC(=O)CC(=O)O)CCCC(O)C4OC4C2C)C[C@H](O)[C@H]3O)OC(C)C1O	ATCC90112			>100 µg/mL
Cc1ccc(CC(Cc2ccc(-c3ccccc3)cc2)n2ccnc2)cc1				33 µM
C[C@H]1[C@H](O)[C@@H](C)/C=C/C=C/C=C/C=C/C=C/C=C/C=C/[C@H](O[C@@H]2O[C@H](C)[C@@H](O)[C@H](N)[C@@H]2O)C[C@@H]2O[C@](O)(C[C@@H](O)C[C@@H](O)CC[C@H](O)[C@@H](O)C[C@@H](O)CC(=O)O[C@H]1C)C[C@H](O)[C@H]2C(=O)O	ATCC66031	broth dilution	72 h	0.5 µg/mL
COC1CC2CCC(C)C(O)(O2)C(O)C(O)N2CCCCC2C(=O)OC(C(C)CC2CCC(O)C(OC)C2)CC(=O)C(C)/C=C(\C)C(O)C(OC)C(=O)C(C)CC(C)/C=C/C=C/C=C/1C	FRR1			>100 µg/mL
C[C@@H](n1ncn(-c2ccc(OCC(F)(F)C(F)F)cc2)c1=O)[C@](O)(Cn1cncn1)c1ccc(F)cc1F	DUMC 119.95			≤0.0313 µg/mL
O=c1c2cccc(O)c2oc2cccc(O)c12				>25 µg/mL
N=C(N)c1ccc(OCCCC2CCN(CCCOc3ccc(C(=N)N)cc3)CC2)cc1	ATCC90112			0.0313 µg/mL
CCOC(=O)C1CC([C@H]2O[C@@H]3OC(C)(C)O[C@@H]3[C@H]3OC(C)(C)O[C@H]32)=NO1				12.5 µg/mL
C[C@H](n1nnnc1CCN1CCN(c2ccccc2)CC1)[C@](O)(Cn1cncn1)c1ccc(F)cc1F	LA314			>8 µg/mL
CC1CC(=O)N(Cc2ccccc2)C1=O	ATCC 32264	broth dilution / turbidity		62.5 µg/mL
COC(=O)c1ccc(N2C(=O)C(OC(C)=O)C2c2ccc(F)cc2)cc1	AH27/A			35.01 µM
O=c1c(N2CCOCC2)c(N2CCN(S(=O)(=O)Cc3ccccc3)CC2)cnn1-c1ccccc1	C237	broth dilution		200 µg/mL
C[C@@H]1CC(=O)N(CCCCc2ccccc2)C1=O	ATCC 32264	broth dilution / turbidity		31.3 µg/mL
O=C(O)c1ccc(O)c(O)c1				>25 µg/mL
Cc1ccc(/C=C2\COc3ccccc3C2=O)cc1	93/V			25 µg/mL
CCCSc1nc(Cl)c(C#N)c(-c2cccs2)n1				>100 µg/mL
COC(/C=C/c1ccccc1)=C1/C(=O)C=C(C)C1=O	ATCC 90113			6.25 µg/mL
COc1cnc2c3c(nccc13)C(=O)c1ccccc1-2	ATCC 32264			0.2 µg/mL
C[C@H](n1nnnc1CCN1CCN(c2ccccn2)CC1)[C@](O)(Cn1cncn1)c1ccc(F)cc1F	LA314			>8 µg/mL
COC(=O)c1ccc(N2C(=O)C(OC(C)=O)C2c2ccc(C)cc2)cc1	AH27/A			70.82 µM
O=[N+]([O-])c1ccc(C=Nc2ccccc2O)cc1	VM-MCMMPI	broth dilution		32 µg/mL
CC(C)S(=O)(=O)N1CCN(c2cnn(-c3cc(F)cc(F)c3)c(=O)c2OC2CCC(F)C2)CC1	C297	broth dilution		4 µg/mL
CN1CCC(n2cc(CN3CCc4sccc4C3)nn2)CC1	NCIM576	agar		>200 µg/mL
C[n+]1c2cccc(Cl)c2cc2sc3ccccc3c21	ATCC 90113	broth dilution		>20 µg/mL
Fc1ccc(CC(Cc2ccc(-c3ccccc3)cc2)n2ccnc2)c(F)c1				5.5 µM
CC1C(=O)N(CCCCc2ccccc2)C(=O)C1C	ATCC 32264	broth dilution / turbidity		125 µg/mL
Oc1ccccc1C=Nc1ccccc1O	WP	broth dilution		5.7 µg/mL
C[C@H](n1nnnc1CCN1CCN(c2ccccc2Cl)CC1)[C@](O)(Cn1cncn1)c1ccc(F)cc1F	LA314			8 µg/mL
CO[C@@H]1[C@H]2OC(C)(C)O[C@H]2O[C@@H]1C1=NOC(CO)C1				>50 µg/mL
CC[C@H]1/C=C(\C)[C@H](O)[C@H](C)C[C@H](OC)[C@H]2O[C@@](O)(C(=O)C(=O)N3CCCC[C@H]3C(=O)O[C@H](/C(C)=C/[C@@H]3CC[C@@H](O)[C@H](OC)C3)[C@H](C)[C@@H](O)CC1=O)[C@H](C)C[C@@H]2OC	C21F2			100 µg/mL
Cc1ccccc1CN(Cc1ccc(-c2ccccc2)cc1)n1ccnc1				5.5 µM
COc1ccc(N2C(=O)C(OC(C)=O)C2c2ccccc2)cc1	AH27/A			80.38 µM
C[C@@H]1CC(=O)N(c2ccc(F)cc2)C1=O	ATCC 32264	broth dilution / turbidity		62.5 µg/mL
CCCCCCCCCCCCC(OC)C(=O)O	ATCC66031			110 µM
COc1ccc(N2C(=O)C(O)C2c2ccccc2)cc1	AH27/A			11.15 µM

A second listing of 5 rows from above:

structure | strain | method | setting | value
N=C(N)c1ccc(OCCCC2CCN(CCCOc3ccc(C(=N)N)cc3)CC2)cc1 | ATCC90112 |  |  | 0.0313 µg/mL
COC1CC2CCC(C)C(O)(O2)C(O)C(O)N2CCCCC2C(=O)OC(C(C)CC2CCC(O)C(OC)C2)CC(=O)C(C)/C=C(\C)C(O)C(OC)C(=O)C(C)CC(C)/C=C/C=C/C=C/1C | FRR1 |  |  | >100 µg/mL
CCC(C)CC(C)CCCCCCCCC(=O)N[C@H]1C[C@@H](O)[C@H](NCCN)NC(=O)[C@@H]2[C@@H](O)CCN2C(=O)[C@H]([C@H](O)CCN)NC(=O)[C@H]([C@H](O)[C@@H](O)c2ccc(O)cc2)NC(=O)[C@@H]2C[C@@H](O)CN2C(=O)[C@H]([C@@H](C)O)NC1=O | Isolate 34 (AMB FCZ 5FC-susceptible) |  |  | 16 µg/mL
COc1cnc2c3c(nccc13)C(=O)c1ccccc1-2 | ATCC 32264 |  |  | 0.2 µg/mL
Clc1ccc(CC(Cc2ccc(-c3ccccc3)cc2)n2ccnc2)cc1 |  |  |  | 5.5 µM